Source: patent US20220313717A1, “METHODS OF TREATING CRYPTOCOCCUS INFECTIONS” (MATINAS BIOPHARMA NANOTECHNOLOGIES, INC., priority 2019, published 2022)

Experiment: Participant subjective impressions of cAMB versus prior IV AMB (qualitative scale, visual analog)
Design: species or system human

Structure (SMILES): C[C@@H]1[C@H](O)[C@@H](C)/C=C/C=C/C=C/C=C/C=C/C=C/C=C/[C@H](O[C@@H]2O[C@H](C)[C@@H](O)[C@H](N)[C@@H]2O)C[C@@H]2O[C@](O)(C[C@@H](O)C[C@@H](O)[C@H](O)CC[C@@H](O)C[C@@H](O)CC(=O)O[C@H]1C)C[C@H](O)[C@H]2C(=O)O [IV AMB, amphotericin B]
- participants willing to receive IV AMB again versus an alternative therapy (Phase 1A pre-participation survey (10/25)): 40%
- participants who thought the therapy very convenient (Phase 1A, cAMB 25/27, IV AMB 15/23 respondents): 65%
